# B1: VHH3.117 (VHH)
# VHH: QVQLQESGGGLVQPGGSLRLSCAASGKAVSISDMGWYRQPPGKQRELVATITKTGSTNYADSAQGRFTISRDNTKSAVYLEMKSLKPEDTAVYYCNAWLPYGMGPDYYGMELWGKGTQVTVSS
# B2: KiH19 = VHH117/VHH83-10GS-KiH (bispecific antibody, V domains shown)
# V domain 1: DVQLQESGGGLVQPGGSLRLSCAASGKAVSISDMGWYRQPPGKQRELVATITKTGSTNYADSAQGRFTISRDNTKSAVYLEMKSLKPEDTAVYYCNAWLPYGMGPDYYGMELWGKGTQVTVSS
# V domain 2: DVQLQESGGGLVQPGDSLRLSCVLSGGVFTSYAMGWFRQAPGKEREFLAAITFNSDATYYADSVKGRFTISRDNAKNTAYLQMNSLKPEDTAVYSCAAGGNHYNPQYYHDYDKYDHWGQGTQVTVSS
# B3: pX-B001_GS-VHH72-h1-E1D-S56A_(G4S)6_VHH72-h1-E1D-S56A_His8 (VHH)
# chain: DVQLVESGGGLVQPGGSLRLSCAASGRTFSEYAMGWFRQAPGKEREFVATISWSGGATYYTDSVKGRFTISRDNAKNTVYLQMNSLRPEDTAVYYCAAAGLGTVVSEWDYDYDYWGQGTLVTVSSGGGGSGGGGSGGGGSGGGGSGGGGSGGGGSDVQLVESGGGLVQPGGSLRLSCAASGRTFSEYAMGWFRQAPGKEREFVATISWSGGATYYTDSVKGRFTISRDNAKNTVYLQMNSLRPEDTAVYYCAAAGLGTVVSEWDYDYDYWGQGTLVTVSS
# B4: VHH3.83 (VHH)
# VHH: QVQLQESGGGLVQPGDSLRLSCVLSGGVFTSYAMGWFRQAPGKEREFLAAITFNSDATYYADSVKGRFTISRDNAKNTAYLQMNSLKPNDTAVYSCAAGGNHYNPQYYHDYDKYDHWGQGTQVTVSS
# B5: pX-B002_GS-VHH72-h1-E1D-S56A_(G4S)_VHH72-h1-E1D-S56A_His8 (VHH)
# chain: DVQLVESGGGLVQPGGSLRLSCAASGRTFSEYAMGWFRQAPGKEREFVATISWSGGATYYTDSVKGRFTISRDNAKNTVYLQMNSLRPEDTAVYYCAAAGLGTVVSEWDYDYDYWGQGTLVTVSSGGGGSDVQLVESGGGLVQPGGSLRLSCAASGRTFSEYAMGWFRQAPGKEREFVATISWSGGATYYTDSVKGRFTISRDNAKNTVYLQMNSLRPEDTAVYYCAAAGLGTVVSEWDYDYDYWGQGTLVTVSS
# B6: pX-B011_GS-VHH3-117-hc_(G4S)_VHH3-83-hc-N85E_His8 (bispecific antibody)
# chain: DVQLVESGGGLVQPGGSLRLSCAASGKAVSISDMGWYRQPPGKQRELVATITKTGSTNYADSAQGRFTISRDNTKSAVYLEMKSLRPEDTAVYYCNAWLPYGMGPDYYGMELWGKGTLVTVSSGGGGSDVQLQESGGGLVQPGDSLRLSCVLSGGVFTSYAMGWFRQAPGKEREFLAAITFNSDATYYADSVKGRFTISRDNAKNTAYLQMNSLRPEDTAVYSCAAGGNHYNPQYYHDYDKYDHWGQGTLVTVSS
# B7: pX-B003_GS-VHH72-h1-E1D-S56A_(G4S)4_VHH72-h1-E1D-S56A_His8 (VHH)
# chain: DVQLVESGGGLVQPGGSLRLSCAASGRTFSEYAMGWFRQAPGKEREFVATISWSGGATYYTDSVKGRFTISRDNAKNTVYLQMNSLRPEDTAVYYCAAAGLGTVVSEWDYDYDYWGQGTLVTVSSGGGGSGGGGSGGGGSGGGGSDVQLVESGGGLVQPGGSLRLSCAASGRTFSEYAMGWFRQAPGKEREFVATISWSGGATYYTDSVKGRFTISRDNAKNTVYLQMNSLRPEDTAVYYCAAAGLGTVVSEWDYDYDYWGQGTLVTVSS
# B8: KIH10 = VHH72_5mut/VHH89Hum-KiH (bispecific antibody, V domains shown)
# V domain 1: DVQLVESGGGLVQPGGSLRLSCAASGLTFSDIAMGWFRQAPGKEREFVATISWSGGGTYYTDSVKGRFTISRDNAKNTVYLQMNSLRPEDTAVYYCAAAGAGTVVSEWDYDYDYWGQGTLVTVSS
# V domain 2: DVQLVESGGGLVQPGGSLRLSCAASGFTLDYYAIGWFRQAPGKEREGLSRIDSSDGSTYYADSVKGRFTISRDNAKNIVYLQMNSLKPEDTAVYYCATDPIIQGRNWYWTGWGQGTLVTVSS
# B9: pX-B007_GS-VHH3-117-hc_(G4S)6_VHH3-83-hc_His8 (bispecific antibody)
# chain: DVQLVESGGGLVQPGGSLRLSCAASGKAVSISDMGWYRQPPGKQRELVATITKTGSTNYADSAQGRFTISRDNTKSAVYLEMKSLRPEDTAVYYCNAWLPYGMGPDYYGMELWGKGTLVTVSSGGGGSGGGGSGGGGSGGGGSGGGGSGGGGSDVQLQESGGGLVQPGDSLRLSCVLSGGVFTSYAMGWFRQAPGKEREFLAAITFNSDATYYADSVKGRFTISRDNAKNTAYLQMNSLRPNDTAVYSCAAGGNHYNPQYYHDYDKYDHWGQGTLVTVSS
# B10: pX-B008_GS-VHH3-117-hc_(G4S)6_VHH3-83-hc-N85E_His8 (bispecific antibody)
# chain: DVQLVESGGGLVQPGGSLRLSCAASGKAVSISDMGWYRQPPGKQRELVATITKTGSTNYADSAQGRFTISRDNTKSAVYLEMKSLRPEDTAVYYCNAWLPYGMGPDYYGMELWGKGTLVTVSSGGGGSGGGGSGGGGSGGGGSGGGGSGGGGSDVQLQESGGGLVQPGDSLRLSCVLSGGVFTSYAMGWFRQAPGKEREFLAAITFNSDATYYADSVKGRFTISRDNAKNTAYLQMNSLRPEDTAVYSCAAGGNHYNPQYYHDYDKYDHWGQGTLVTVSS
# Tests used:
# Assay in all cases: cell-based or functional assay
# [1] = biological target: SARS-COV-2 Wuhan WT Spike_del18 on VSV-delG pseudotyped particles (SARS-COV-2, UniProt P0DTC2 14-1255)
# [2] = biological target: SARS-COV-2 Omicron BA.2 Spike_del18 on VSV pseudotyped particles (SARS-COV-2 Omicron BA.2, UniProt P0DTC2 14-1255)
# [3] = biological target: SARS-COV-2 S375F variant spike protein on VSV pseudotyped particles
Binder,"EC50 nM, pseudoneutralization assay [1] [nM]",other results
B1,36.7,–
B2,–,loss of neutralizing activity for Omicron BA.2 against WT pseudotyped VSV [2]: 2.4 fold
B3,5.54,–
B4,16.2,–
B5,3.74,–
B6,21,–
B7,12.1,–
B8,–,"IC50, neutralization of pseudotyped VSV particles [3]: ~1.6 µg/mL"
B9,10.2,"IC50 ug/ml, pseudoneutralization assay [1]: 0.312 µg/mL"
B10,6.42,–

# From patent publication US20240228596A1 (VIB VZW, published 2024)
